Anti-infective test results gathered from many reports (values: NIAID ChemDB through PubChem).

All rows: cytotoxicity tests; endpoint: CC50

CCn: concentration that lowers growth or viability of the cells by n%. Two numbers with a dash give a range or band. Blank or dashed fields: not listed here. Rows are shuffled and stem from different studies.

structure	cell line	method	result
CC(C)[C@H](NC(=O)[C@H](NCc1ccc(Cl)cc1)[C@H](O)[C@H](Cc1ccccc1)NC(=O)[C@@H](NC(=O)OCc1ccccc1)C(C)(C)C)C(=O)NCc1nc2ccccc2[nH]1	U-937		4.5 µM
CC(C)CN(C[C@@H](O)[C@H](Cc1ccccc1)NC(=O)[C@]12CC[C@@H](C)[C@H](C)[C@H]1C1=CC[C@@H]3[C@@]4(C)CC[C@@H](O)C(C)(C)[C@@H]4CC[C@@]3(C)[C@]1(C)CC2)S(=O)(=O)c1ccc(N)cc1	HUVEC	absorbance	>100 µM
COc1ccc2c(c1)c(Sc1ccc(C)cc1)cc(=O)n2C	Huh-Luc-Neo		>100 µM
COc1ccc(S(=O)(=O)N(CC(C)C)C[C@@H](O)[C@H](Cc2ccccc2)NC(=O)[C@]23CCC(C)(C)C[C@H]2C2=CC[C@@H]4[C@@]5(C)CC[C@@H](O)C(C)(C)[C@@H]5CC[C@@]4(C)[C@]2(C)CC3)cc1	HUVEC	absorbance	>100 µM
COc1ccc(Cc2cc(C3CCN(C(=O)c4ccc5c(c4)OCO5)CC3)no2)cc1	Jurkat cells (PMA-stimulated)		>5 µM
Cc1cnc(Cl)c(/C=C/C(=O)c2ccccc2)c1	RAW 264.7	MTT	16 µM
C[C@]12OC[C@@]1(n1ccc(=O)[nH]c1=O)O[C@H](CO)[C@H]2O	Zluc	resazurin	>100 µM
C=CCN1C(=O)CS/C1=N/N=C1\C(=O)Nc2ccc([N+](=O)[O-])cc21	MDBK		4 µg/mL
CCN1C(=O)Cc2cc(C(=O)CN3CCN(c4noc5c(Cl)cccc45)CC3)ccc21	RAW 264.7	MTT	82.89 µg/mL
Cc1onc(-c2c(F)cccc2F)c1C(=O)N1CCN(c2c(F)c([N+](=O)[O-])c3c(=O)c(C(=O)O)cn4c3c2OCC4C)CC1	Mammalian Vero cells	MTT	102 µM
CCCCCCCCCCN=C(N)c1ccc(N2CCN(c3ccc(C(N)=NCCCCCCCCCC)cc3)CC2)cc1	WI-38		7.64 µg/mL
c1ccc(CCCCn2ccc3nc(-c4ccccc4)nc-3c2)cc1	MDBK		36 µg/mL
C[C@H]1COc2c(N3CCSCC3)c(F)cc3c(=O)c(C(=O)O)cn1c23	Mammalian Vero cells	MTT	>172 µM
CSc1nsc(-c2ccc(OCCOc3ccc([N+](=O)[O-])cc3)cc2)c1C#N	HEP-2/L-929/VERO		1 µM
CCCCCCCCCCCCCCOc1ccc(C(C)=O)o1	R-HELA		25–50 µg/mL
Nc1nc(Cc2ccc(O)cc2)cc(C2CCN(C(=O)c3ccc4c(c3)OCO4)CC2)n1	Jurkat cells (PMA-stimulated)		>5 µM
O=C(O)C(=O)/C=C(\O)c1ccc(OCc2ccccc2)cc1	Huh-7 hepatoma cells		>100 µM
CC(C)=CC1CC([C@@H]2CC[C@]3(C)C4CC[C@H]5C(C)(C)[C@@H](O)CC[C@]5(C)[C@H]4CC[C@@]23C)CO1	L6 cells	MTT	14.7 µM
CC(C)[C@H](NC(=O)OCc1ccccc1)C(=O)N[C@@H](Cc1ccccc1)[C@@H](O)[C@@H](NCc1ccccc1)C(=O)N[C@H](C(=O)NCc1ccccc1)C(C)C	U-937		29.8 µM
Cc1cc(=O)oc2cc(OCc3cn(Cc4cc(=O)oc5ccc6ccccc6c45)nn3)ccc12	V79	MTT	48.25 µg/mL
CCN1C(=O)C(C)c2cc(C(=O)CN3CCN(c4noc5c(Cl)cccc45)CC3)ccc21	RAW 264.7	MTT	113 µg/mL
N[C@@H](Cc1cnc[nH]1)C(=O)NCCCCNc1c2ccccc2nc2ccccc12	KB cells	MTS	4.85 µM
Cn1c(=O)cc(Sc2ccc(C(C)(C)C)cc2)c2ccccc21	Huh-Luc-Neo		>100 µM
CCOC(=O)CCCCCOc1cccc(CN(C(=O)c2ccc(-c3cccc(C#N)c3)cc2)C(C)C)c1	RAJI		>20 µM
Cn1c(=O)cc(Sc2ccc(NC(=O)[C@H](Cc3ccc(F)cc3)NC(=O)OC(C)(C)C)cc2)c2ccccc21	Huh-Luc-Neo		>100 µM
O=c1oc(-c2ccccc2)ns1	Vero cell	ATP	12 µM
Cn1c(=O)cc(Sc2ccc(NC(=O)[C@H](Cc3ccccc3)NC(=O)OC(C)(C)C)cc2)c2ccccc21	Huh-Luc-Neo		>100 µM
C=C(C)C1CC[C@]2(C(=O)O)CC[C@@]3(C)[C@]4(C)CC[C@H]5C(C)(C)[C@@H](OC(C)=O)CC[C@]5(C)[C@H]4CC[C@]3(C)[C@@H]12	L6 cells	MTT	5.2 µM
C[C@H]1COc2c(N3CCC(O)(c4ccc(Cl)cc4)CC3)c(F)c([N+](=O)[O-])c3c(=O)c(C(=O)O)cn1c23	Mammalian Vero cells	MTT	60.35 µM
Fc1ccc(Cn2ccc3nc(-c4c(F)cccc4F)nc-3c2)cc1	MDBK		70 µg/mL
CC1COc2c(N3CCSCC3)c(F)c([N+](=O)[O-])c3c(=O)c(C(=O)O)cn1c23	Mammalian Vero cells	MTT	153 µM
Cc1ccc(Cn2ccc3nc(-c4ccccc4)nc-3c2)cc1	MDBK		45 µg/mL
O=[N+]([O-])c1ccc2c(c1)c(N=NC(=S)Nc1ccccc1)c(O)n2CN1CCCCC1	MDBK		20 µg/mL
CC1COc2c(N3CCN(C)C(c4ccccc4)C3)c(F)c([N+](=O)[O-])c3c(=O)c(C(=O)O)cn1c23	Mammalian Vero cells	MTT	130 µM
CCOC(=O)COc1ccc(CN(C(=O)c2ccc(-c3ccc4c(c3)OCO4)cc2)C(C)C)cc1	BJ		>20 µM
C=CCNC(=S)N=Nc1c(O)n(CN2CCOCC2)c2ccc([N+](=O)[O-])cc12	MDBK		>50 µg/mL
Cn1c(=O)cc(Sc2cccc(F)c2)c2ccccc21	Huh-Luc-Neo		>100 µM
CC1S/C(=N/N=C2\C(=O)Nc3ccc([N+](=O)[O-])cc32)N(c2ccc(Cl)cc2)C1=O	MDBK		>50 µg/mL
Cc1cc(=O)oc2cc(OCc3cn(Cc4cc(=O)oc5cc(Cl)ccc45)nn3)ccc12	V79	MTT	61.88 µg/mL
COC(=O)c1ccc(/C=C/C(=O)c2ccccc2)c(Cl)n1	RAW 264.7	MTT	35 µM
O=C1Nc2ccc([N+](=O)[O-])cc2/C1=N/N=C1/SCC(=O)N1c1ccc(Cl)cc1	MDBK		2 µg/mL
CC(C)[C@H](NC(=O)OCc1ccccc1)C(=O)N[C@@H](Cc1ccccc1)[C@@H](O)[C@@H](NCc1ccccc1)C(=O)N[C@H](C(=O)NCc1nc2ccccc2[nH]1)C(C)C	U-937		6.1 µM
Cn1c(=O)cc(Sc2ccc(N)cc2)c2cccnc21	Huh-Luc-Neo		>100 µM
O=C(/C=C/c1cc(-c2ccccc2)cnc1Cl)c1ccccc1	RAW 264.7	MTT	102 µM
CCN1C(=O)CS/C1=N/N=C1\C(=O)Nc2ccc([N+](=O)[O-])cc21	MDBK		17 µg/mL
CC(=O)Nc1ccc(SSc2ccc(NC(C)=O)cc2C(N)=O)c(C(N)=O)c1	U1	trypan blue	>100 µM
Cc1cc(C2CCN(C(=O)c3ccc4c(c3)OCO4)CC2)nc(N)n1	Jurkat cells (PMA-stimulated)		>5 µM
C=CCCCC(=O)NCC(c1ccc2c(c1)OCO2)C1OCCO1	HepG2		<7.5 µM
NC(=Nc1ccccc1)c1ccc(N2CCN(c3ccc(C(N)=Nc4ccccc4)cc3)CC2)cc1	WI-38		>11.6 µg/mL
CC1(C)C2CC=C3C(CC[C@@]4(C)C5C[C@](C)(C(=O)O)CC[C@]5(C)CC[C@]34C)[C@@]2(C)CCC1(O)O	A2780		20 µM
CCN1C(=O)Cc2cc(C(=O)CN3CCN(c4noc5cccc(Cl)c45)CC3)ccc21	RAW 264.7	MTT	70.18 µg/mL
COc1ccc(Cc2cc(C3CCN(C(=O)c4ccc5c(c4)OCO5)CC3)on2)cc1	Jurkat cells (PMA-stimulated)		>5 µM
Nc1ccn([C@@H]2O[C@H](CO)C3OC32)c(=O)n1	TM11		5 µM
COc1cccc(-c2ccc(C(=O)N(Cc3cccc(OCCCCCC(=O)OC(=O)O)c3)C(C)C)cc2)c1	HepG2		>20 µM
CC(C)CN(C[C@@H](O)[C@H](Cc1ccccc1)NC(=O)[C@]12CC[C@@H](C)[C@H](C)[C@H]1C1=CC[C@@H]3[C@@]4(C)CCC(=O)C(C)(C)[C@@H]4CC[C@@]3(C)[C@]1(C)CC2)S(=O)(=O)c1ccc([N+](=O)[O-])cc1	HUVEC	absorbance	>100 µM
CCN1C(=O)C(C)c2cc(C(=O)CN3CCN(c4noc5ccccc45)CC3)ccc21	RAW 264.7	MTT	68.56 µg/mL
COc1ccc2nc3cc(Cl)ccc3c(NCCN)c2c1	MRC-5 cells	MTS	0.105 µM
CC1C(=O)N(C)c2ccc(C(=O)CN3CCN(c4ccccn4)CC3)cc21	RAW 264.7	MTT	113 µg/mL
C=C(C)C1CC[C@]2(C(=O)O)CC[C@@]3(C)[C@]4(C)CC[C@H]5C(C)(C)[C@@H](OC(=O)/C=C/c6ccc(O)cc6)CC[C@]5(C)[C@H]4CC[C@]3(C)[C@@H]12	L6 cells	MTT	9.3 µM
CC[C@H](C)/C=C(C)/C=C/C(=O)CC1=C(C=O)C(O)C(C)C(O)C1	J774	visual reading	200 µg/mL
CCOC(=O)c1ccc(OCCCCOc2ccc(-c3snc(SC)c3C#N)cc2)cc1	HEP-2/L-929/VERO		2 µM
O=C(Nc1ccc2c(c1)OCO2)c1cc(-c2cccs2)nc2ccccc12	HEK 293		>20 µM
Cc1ccccc1-c1nc2ccn(Cc3ccc(Br)cc3)cc-2n1	MDBK		66 µg/mL
CSc1nsc(-c2ccc(OCCCCOc3ccc([N+](=O)[O-])cc3)cc2)c1C#N	HELA-OHIO		0.5 µM
C=CCNC(=S)N=Nc1c(O)n(CN2CCCCC2)c2ccc([N+](=O)[O-])cc12	MDBK		16 µg/mL
CCCN=C(N)c1ccc(N2CCN(c3ccc(C(N)=NCCC)cc3)CC2)cc1	WI-38		53.9 µg/mL
COC1=NC=C[C@H](O)C(O[C@@H]2O[C@H](CO)[C@@H](O)[C@H](O)[C@H]2O)S1	EL-4	sulforhodamine	>100 µg/mL
CC(C)CN(C[C@@H](O)[C@H](Cc1ccccc1)NC(=O)[C@]12CCC(C)(C)C[C@H]1C1=CC[C@@H]3[C@@]4(C)CC[C@@H](O)C(C)(C)[C@@H]4CC[C@@]3(C)[C@]1(C)CC2)S(=O)(=O)c1ccc([N+](=O)[O-])cc1	HUVEC	absorbance	>100 µM
CCCc1cnc(Cl)c(/C=C/C(=O)OCC)c1	RAW 264.7	MTT	8 µM
COc1cc2c(cc1OC)CN(c1c(F)c([N+](=O)[O-])c3c(=O)c(C(=O)O)cn4c3c1OCC4C)CC2	Mammalian Vero cells	MTT	62.5 µM
CC1S/C(=N/N=C2\C(=O)Nc3ccc([N+](=O)[O-])cc32)N(c2ccc([N+](=O)[O-])cc2)C1=O	MDBK		18 µg/mL
c1ccc(-c2nc3ccn(Cc4ccc5ccccc5c4)cc-3n2)cc1	MDBK		21 µg/mL
Cc1cc(C)c2c(=O)c3cc(N)c(N4CCN(c5ccccn5)CC4)cc3n(C)c2c1	Huh 5-2		>50 µg/mL
CSc1nsc(-c2ccc(OCCCOc3ccccc3)cc2)c1C#N	HELA-OHIO		>50 µM
C[C@H]1COc2c(N3CCc4ccccc4C3C(=O)NC(C)(C)C)c(F)cc3c(=O)c(C(=O)O)cn1c23	Mammalian Vero cells	MTT	127 µM
CSc1nsc(-c2ccc(OCCCc3ccccc3)cc2)c1C#N	HELA-OHIO		>50 µM
CCc1ccc2c(c1)c(Sc1ccc(N)cc1)cc(=O)n2C	Huh-Luc-Neo		>100 µM
C=C(C)[C@@H]1CC[C@]2(C(=O)N[C@@H](Cc3ccccc3)[C@H](O)CN(CC(C)C)S(=O)(=O)c3ccc(OC)cc3)CC[C@]3(C)[C@H](CC[C@@H]4[C@@]5(C)CC[C@H](O)C(C)(C)[C@@H]5CC[C@]43C)[C@@H]12	HUVEC	absorbance	>100 µM
O=C(NCCCCNc1c2ccccc2nc2ccccc12)[C@@H]1CCCN1	KB cells	MTS	0.295 µM
O=C(NCc1cccs1)c1nn2c(c1Cl)N[C@@H](c1ccco1)C[C@H]2C(F)(F)F	CA32 replicon cells	ATP	>100 µM
CSc1nsc(-c2ccc(OCCc3ccccc3)cc2)c1C#N	HELA-OHIO		>50 µM
COc1ccc(Cc2cc(C3CCN(C(=O)c4ccc5[nH]ccc5c4)CC3)nc(N)n2)cc1	Jurkat cells (PMA-stimulated)		>5 µM
CCCN(Cc1cccc(OCCCCCC(=O)OCC)c1)C(=O)c1ccc(-c2ccc3c(c2)OCO3)cc1	HEK 293		>20 µM
CCCCNC1=CC(C(=O)O)=CC(S(N)(=O)=O)C1Oc1ccccc1	RH9		3.7 µM

The last 8 rows once more:

structure,cell line,method,result
CCc1ccc2c(c1)c(Sc1ccc(N)cc1)cc(=O)n2C,Huh-Luc-Neo,,>100 µM
C=C(C)[C@@H]1CC[C@]2(C(=O)N[C@@H](Cc3ccccc3)[C@H](O)CN(CC(C)C)S(=O)(=O)c3ccc(OC)cc3)CC[C@]3(C)[C@H](CC[C@@H]4[C@@]5(C)CC[C@H](O)C(C)(C)[C@@H]5CC[C@]43C)[C@@H]12,HUVEC,absorbance,>100 µM
O=C(NCCCCNc1c2ccccc2nc2ccccc12)[C@@H]1CCCN1,KB cells,MTS,0.295 µM
O=C(NCc1cccs1)c1nn2c(c1Cl)N[C@@H](c1ccco1)C[C@H]2C(F)(F)F,CA32 replicon cells,ATP,>100 µM
CSc1nsc(-c2ccc(OCCc3ccccc3)cc2)c1C#N,HELA-OHIO,,>50 µM
COc1ccc(Cc2cc(C3CCN(C(=O)c4ccc5[nH]ccc5c4)CC3)nc(N)n2)cc1,Jurkat cells (PMA-stimulated),,>5 µM
CCCN(Cc1cccc(OCCCCCC(=O)OCC)c1)C(=O)c1ccc(-c2ccc3c(c2)OCO3)cc1,HEK 293,,>20 µM
CCCCNC1=CC(C(=O)O)=CC(S(N)(=O)=O)C1Oc1ccccc1,RH9,,3.7 µM